# System: Swiss Webster mice
# Test: Bioassay: intracranial injection into Swiss Webster mice (11 days old)
smiles,measurement,setting,value
NCC(=O)N[C@H]1CSSC[C@@H](C(N)=O)NC(=O)[C@H](Cc2c[nH]c3ccccc23)NC(=O)[C@@H]2CCCN2C(=O)[C@H](CCC(N)=O)NC(=O)[C@@H](Cc2c[nH]c3ccccc23)NC(=O)[C@@H]2C[C@@H](O)CN2C1=O,symptomatology after intracranial injection into mice,native peptide purified from venom,stiff-tail syndrome
same,symptomatology after intracranial injection into mice,"synthetic D-Trp-containing peptide, 15 nmol","stiff tail syndrome, paralysis of extremities, circular motion and barrel-rolling"
